Data published in US20250115620A1, “BRIDGED TRICYCLIC CARBAMOYLPYRIDONE COMPOUNDS AND USES THEREOF” (Gilead Sciences, Inc., priority 2022, published 2025).

Tested on: pLAI reporter virus
Assay type: cell-based, HIV
Settings: EC50 (50% HS)/EC50 (CCM)

Row | SMILES | RLUC 50% HS Shift [×]
1 | CC1=NO[C@@]2(CC[C@H](C)N3C[C@H]2n2cc(C(=O)NCc4ccc(F)cc4F)c(=O)c(O)c2C3=O)N1 [Example 148, (3′S,5R,7′R)—N-(2,4-difluorobenzyl)-12′-hydroxy-3,3′-dimethyl-1′,11′-dioxo-1′,4′,5′,11′-tetrahydro-3′H,4H,7′H-spiro[[1,2,4]oxadiazole-5,6′-[2,7]methanopyrido[1,2-a][1,4]diazonine]-10′-carboxamide] | 19
2 | CC1=NO[C@@]2(CC[C@H](C)N3C[C@H]2n2cc(C(=O)NCc4ccc(F)cc4F)c(=O)c(O)c2C3=O)N1C [Example 149a, (3′S,5R,7′R)—N-(2,4-difluorobenzyl)-12′-hydroxy-3,3′,4-trimethyl-1′,11′-dioxo-1′,4′,5′,11′-tetrahydro-3′H,4H,7′H-spiro[[1,2,4]oxadiazole-5,6′-[2,7]methanopyrido[1,2-a][1,4]diazonine]-10′-carboxamide] | 6
3 | CC1=N[C@]2(CC[C@H](C)N3C[C@H]2n2cc(C(=O)NCc4ccc(F)cc4F)c(=O)c(O)c2C3=O)ON1C [Example 149b, (3′S,5R,7′R)—N-(2,4-difluorobenzyl)-12′-hydroxy-2,3,3′-trimethyl-1′,11′-dioxo-1′,4′,5′,11′-tetrahydro-2H,3′H,7′H-spiro[[1,2,4]oxadiazole-5,6′-[2,7]methanopyrido[1,2-a][1,4]diazonine]-10′-carboxamide] | 16
4 | [2H]C([2H])([2H])OC1=NO[C@@]2(CC[C@H](C)N3C[C@H]2n2cc(C(=O)NCc4ccc(F)cc4F)c(=O)c(O)c2C3=O)C1 [Example 153, (3′S,5S,7′R)—N-(2,4-difluorobenzyl)-12′-hydroxy-3-(methoxy-d3)-3′-methyl-1′,11′-dioxo-1′,4′,5′,11′-tetrahydro-3′H,4H,7′H-spiro[isoxazole-5,6′-[2,7]methanopyrido[1,2-a][1,4]diazonine]-10′-carboxamide] | 67
5 | C[C@H]1CC[C@]2(CC(S(C)(=O)=O)=NO2)[C@H]2CN1C(=O)c1c(O)c(=O)c(C(=O)NCc3c(F)cc(F)cc3F)cn12 [Example 154, (3′S,5S,7′R)-12′-hydroxy-3′-methyl-3-(methylsulfonyl)-1′,11′-dioxo-N-(2,4,6-trifluorobenzyl)-1′,4′,5′,11′-tetrahydro-3′H,4H,7′H-spiro[isoxazole-5,6′-[2,7]methanopyrido[1,2-a][1,4]diazonine]-10′-carboxamide] | 18
6 | CC1=NO[C@@]2(CC[C@H](CF)N3C[C@H]2n2cc(C(=O)NCc4ccc(F)cc4F)c(=O)c(O)c2C3=O)C1 [Example 155, (3′R,5S,7′R)—N-(2,4-difluorobenzyl)-3′-(fluoromethyl)-12′-hydroxy-3-methyl-1′,11′-dioxo-1′,4′,5′,11′-tetrahydro-3′H,4H,7′H-spiro[isoxazole-5,6′-[2,7]methanopyrido[1,2-a][1,4]diazonine]-10′-carboxamide] | 129
7 | C[C@H]1CC[C@]2(CC(=O)NO2)[C@H]2CN1C(=O)c1c(O)c(=O)c(C(=O)NCc3ccc(F)cc3F)cn12 [Example 156, (3′S,5S,7′R)—N-(2,4-difluorobenzyl)-12′-hydroxy-3′-methyl-1′,3,11′-trioxo-1′,4′,5′,11′-tetrahydro-3′H,7′H-spiro[isoxazolidine-5,6′-[2,7]methanopyrido[1,2-a][1,4]diazonine]-10′-carboxamide] | 3
8 | CCN1O[C@@]2(CC[C@H](C)N3C[C@H]2n2cc(C(=O)NCc4c(F)cc(F)cc4F)c(=O)c(O)c2C3=O)CC1=O [Example 157, (3′S,5S,7′R)-2-ethyl-12′-hydroxy-3′-methyl-1′,3,11′-trioxo-N-(2,4,6-trifluorobenzyl)-1′,4′,5′,11′-tetrahydro-3′H,7′H-spiro[isoxazolidine-5,6′-[2,7]methanopyrido[1,2-a][1,4]diazonine]-10′-carboxamide] | 12
9 | C[C@H]1CC[C@]2(CC(=O)N(Cc3ccc(Br)cc3)O2)[C@H]2CN1C(=O)c1c(O)c(=O)c(C(=O)NCc3c(F)cc(F)cc3F)cn12 [Example 158, (3′S,5S,7′R)-2-(4-bromobenzyl)-12′-hydroxy-3′-methyl-1′,3,11′-trioxo-N-(2,4,6-trifluorobenzyl)-1′,4′,5′,11′-tetrahydro-3′H,7′H-spiro[isoxazolidine-5,6′-[2,7]methanopyrido[1,2-a][1,4]diazonine]-10′-carboxamide] | 4
10 | C[C@H]1CC[C@]2(CC(=O)N(Cc3ccccn3)O2)[C@H]2CN1C(=O)c1c(O)c(=O)c(C(=O)NCc3c(F)cc(F)cc3F)cn12 [Example 159, (3′S,5S,7′R)-12′-hydroxy-3′-methyl-1′,3,11′-trioxo-2-(pyridin-2-ylmethyl)-N-(2,4,6-trifluorobenzyl)-1′,4′,5′,11′-tetrahydro-3′H,7′H-spiro[isoxazolidine-5,6′-[2,7]methanopyrido[1,2-a][1,4]diazonine]-10′-carboxamide] | 1
11 | C[C@H]1CC[C@]2(CC(=O)N(Cc3cccnc3)O2)[C@H]2CN1C(=O)c1c(O)c(=O)c(C(=O)NCc3c(F)cc(F)cc3F)cn12 [Example 160, (3′S,5S,7′R)-12′-hydroxy-3′-methyl-1′,3,11′-trioxo-2-(pyridin-3-ylmethyl)-N-(2,4,6-trifluorobenzyl)-1′,4′,5′,11′-tetrahydro-3′H,7′H-spiro[isoxazolidine-5,6′-[2,7]methanopyrido[1,2-a][1,4]diazonine]-10′-carboxamide] | 0
12 | C[C@H]1CC[C@]2(CC(=O)N(Cc3nc4ccccc4s3)O2)[C@H]2CN1C(=O)c1c(O)c(=O)c(C(=O)NCc3c(F)cc(F)cc3F)cn12 [Example 161, (3′S,5S,7′R)-2-(benzo[d]thiazol-2-ylmethyl)-12′-hydroxy-3′-methyl-1′,3,11′-trioxo-N-(2,4,6-trifluorobenzyl)-1′,4′,5′,11′-tetrahydro-3′H,7′H-spiro[isoxazolidine-5,6′-[2,7]methanopyrido[1,2-a][1,4]diazonine]-10′-carboxamide] | 2
13 | C[C@H]1CC[C@]2(CC(=O)N(Cc3nc4ccccc4[nH]3)O2)[C@H]2CN1C(=O)c1c(O)c(=O)c(C(=O)NCc3c(F)cc(F)cc3F)cn12 [Example 162, (3′S,5S,7′R)-2-((1H-benzo[d]imidazol-2-yl)methyl)-12′-hydroxy-3′-methyl-1′,3,11′-trioxo-N-(2,4,6-trifluorobenzyl)-1′,4′,5′,11′-tetrahydro-3′H,7′H-spiro[isoxazolidine-5,6′-[2,7]methanopyrido[1,2-a][1,4]diazonine]-10′-carboxamide] | 4
14 | C[C@H]1CC[C@]2(CC(=O)N(Cc3nc4ccccc4n3C)O2)[C@H]2CN1C(=O)c1c(O)c(=O)c(C(=O)NCc3c(F)cc(F)cc3F)cn12 [Example 163, (3′S,5S,7′R)-12′-hydroxy-3′-methyl-2-((1-methyl-1H-benzo[d]imidazol-2-yl)methyl)-1′,3,11′-trioxo-N-(2,4,6-trifluorobenzyl)-1′,4′,5′,11′-tetrahydro-3′H,7′H-spiro[isoxazolidine-5,6′-[2,7]methanopyrido[1,2-a][1,4]diazonine]-10′-carboxamide] | 2
15 | C[C@H]1CC[C@]2(CO2)[C@H]2CN1C(=O)c1c(O)c(=O)c(C(=O)NCc3c(F)cc(F)cc3F)cn12 [Example 165, (2R,3′S,7′R)-12′-hydroxy-3′-methyl-1′,11′-dioxo-N-(2,4,6-trifluorobenzyl)-1′,4′,5′,11′-tetrahydro-3′H,7′H-spiro[oxirane-2,6′-[2,7]methanopyrido[1,2-a][1,4]diazonine]-10′-carboxamide] | 19
16 | C[C@H]1CC[C@@]2(CO2)[C@H]2CN1C(=O)c1c(O)c(=O)c(C(=O)NCc3c(F)cc(F)cc3F)cn12 [Example 166, (2S,3′S,7′R)-12′-hydroxy-3′-methyl-1′,11′-dioxo-N-(2,4,6-trifluorobenzyl)-1′,4′,5′,11′-tetrahydro-3′H,7′H-spiro[oxirane-2,6′-[2,7]methanopyrido[1,2-a][1,4]diazonine]-10′-carboxamide] | 7
17 | COC[C@H]1CO[C@]2(CC[C@H](C)N3C[C@H]2n2cc(C(=O)NCc4c(F)cc(F)cc4F)c(=O)c(O)c2C3=O)O1 [Example 167, (2R,3′S,4S,7′R)-12′-hydroxy-4-(methoxymethyl)-3′-methyl-1′,11′-dioxo-N-(2,4,6-trifluorobenzyl)-1′,4′,5′,11′-tetrahydro-3′H,7′H-spiro[[1,3]dioxolane-2,6′-[2,7]methanopyrido[1,2-a][1,4]diazonine]-10′-carboxamide] | 15
18 | O=C(NCc1c(F)cc(F)cc1F)c1cn2c(c(O)c1=O)C(=O)N1CCCC[C@H]2C1 [Reference Compound A, reference compound] | 6
19 | O=C(NCc1ccc(F)cc1F)c1cn2c(c(O)c1=O)C(=O)N1CCCC[C@H]2C1 [Reference Compound B, reference compound] | 4
20 | O=C(NCc1ccc(F)cc1F)c1cn2c(c(O)c1=O)C(=O)N1CCCC3(CC3)[C@H]2C1 [Reference Compound C, reference compound] | 8
21 | C[C@H]1CCC[C@H]2CN1C(=O)c1c(O)c(=O)c(C(=O)NCc3ccc(F)cc3F)cn12 [Reference Compound D, reference compound] | 34
